From publication PMC5527654 come the findings set out here.

Data set [1] concerns the target T1, 6xHis-PA3225 (Pseudomonas aeruginosa UCBPP-PA14) (UniProt A0A0H2ZDR5).
T1 sequence: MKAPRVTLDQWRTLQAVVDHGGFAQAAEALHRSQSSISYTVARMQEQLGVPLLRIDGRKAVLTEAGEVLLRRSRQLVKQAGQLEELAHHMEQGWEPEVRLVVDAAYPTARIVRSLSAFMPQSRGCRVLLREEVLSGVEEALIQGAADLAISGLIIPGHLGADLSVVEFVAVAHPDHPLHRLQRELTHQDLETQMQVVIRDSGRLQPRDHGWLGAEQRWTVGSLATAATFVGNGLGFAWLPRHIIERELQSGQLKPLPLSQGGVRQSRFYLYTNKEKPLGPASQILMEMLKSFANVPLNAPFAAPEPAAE
In words: pull-down. The conditions noted are these: 2 ug protein; recombinant protein; residues 1-309; protein details: N-terminal 6xHis (pET30a, BamHI/HindIII); label: 5' biotin on CH3 strand; probe letters rebuilt from the primers and the ….

For data set [2], the target named is T1, 6xHis-PA3225 (Pseudomonas aeruginosa UCBPP-PA14). In words: EMSA. As to conditions: recombinant protein, residues 1-309, protein details: N-terminal 6xHis (pET30a, BamHI/HindIII), probe letters rebuilt from the primers and the genome. For orientation: A gel shift assay detects complexes by their altered migration in electrophoresis.
Data set [3] shares this target. In words: competition with a labelled probe. The conditions noted are these: versus 5 nM Cy5-PtssABC1, 1 uM protein; recombinant protein; residues 1-309; protein details: N-terminal 6xHis (pET30a, BamHI/HindIII); probe letters rebuilt from the primers and the genome.

For the sequence “AAAACGGGTACATCCAGCACGGTGACGATCTCCCTATCATCGGAGCCGCTGCGCGGCCCTCACCTTCGCTTGTAAGATCCACTCCGTCGGATCTTGTAGGAGCCATTGATGAATATCGGATGACTCGAAAGGTTGGCAAAATTCTTGTGGCATGCCGCAAGGCTTGTCAAGGAAGGCACAACGCCACTAGTTGCATGACACCGCAGATCGGACAAATCTTTAAAAGACGTAGGATTAGTCTTTTATAATCCGGTACCACCCGATGTGTCTTCCCGAGGCGACGAAACGCCGGAAAGCCGTCGGGCCAGCCTGGATGCGAACCGAAATCCCTCGGGCACGGGGGTGAGCGCCTGGAAGAGCCGGGCGCTGGCAATGCAAGGAGTAGCAATGCCGCTGCGATTGACCATCACCAGCTACCACAAGCTGA (double strand) [Biotin-PtssABC1 bait]”, the binding result in data set [1] is “binds”.

With “AAAACGGGTACATCCAGCACGGTGACGATCTCCCTATCATCGGAGCCGCTGCGCGGCCCTCACCTTCGCTTGTAAGATCCACTCCGTCGGATCTTGTAGGAGCCATTGATGAATATCGGATGACTCGAAAGGTTGGCAAAATTCTTGTGGCATGCCGCAAGGCTTGTCAAGGAAGGCACAACGCCACTAGTTGCATGACACCGCAGATCGGACAAATCTTTAAAAGACGTAGGATTAGTCTTTTATAATCCGGTACCACCCGATGTGTCTTCCCGAGGCGACGAAACGCCGGAAAGCCGTCGGGCCAGCCTGGATGCGAACCGAAATCCCTCGGGCACGGGGGTGAGCGCCTGGAAGAGCCGGGCGCTGGCAATGCAAGGAGTAGCAATGCCGCTGCGATTGACCATCACCAGCTACCACAAGCTGA (double strand) [Cy5-PtssABC1]”, the binding result in data set [2] (complex observed at 600 nM protein, label: 5' Cy5 on CH17 …) is on record as “binds”.

As for “AAAACGGGTACATCCAGCACGGTGACGATCTCCCTATCATCGGAGCCGCTGCGCGGCCCTCACCTTCGCTTGTAAGATCCACTCCGTCGGATCTTGTAGGAGCCATTGATGAATATCGGATGACTCGAAAGGTTGGCAAAATTCTTGTGGCATGCCGCAAGGCTTGTCAAGGAAGGCACAACGCCACTAGTTGCATGACACCGCAGATCGGACAAATCTTTAAAAGACGTAGGATTAGTCTTTTATAATCCGGTACCACCCGATGTGTCTTCCCGAGGCGACGAAACGCCGGAAAGCCGTCGGGCCAGCCTGGATGCGAACCGAAATCCCTCGGGCACGGGGGTGAGCGCCTGGAAGAGCCGGGCGCTGGCAATGCAAGGAGTAGCAATGCCGCTGCGATTGACCATCACCAGCTACCACAAGCTGA (double strand) [PtssABC1 unlabeled]”, in data set [3], the binding result was “binds”.

Regarding “ATGGCTGGCGTTCGTTGCATAGCGTTGTCCTCATGAGCGAAAGCGGCCGATGCAGCGTGAAGGCGCTGCACCGGCTCGAAGAAGGCAGGCAAAATACTTACATTCATAGGTGTTTGTAAACGTCCGAAAGCCTCGCGTGAAAACACCTGAAACGTTTTAGCTCGATGGCCGGTTATCCACCCGGCGCCATGGCCCATATTCAGAACCTGAAACAAGGTTGATAAGGTCAACTAAAATAAGCAAAATAGTTGACTGGATCAACCACATTTACATTAGGTTTACTCGGCCAAACCAATGAACTACCCCGTGAATCCCGACCTGATGCCCGCGCTGATGGCGGTCTTCCAGCATGTACGGACGCGCATCCAGAGCGAGCTCGATT (double strand) [Cy5-PmexAB-oprM probe 1]”, the binding result in data set [2] (label: 5' Cy5 on CH30 strand) is given as “binds”.
